# Results: paper PMC6950336, “Co-Occurrence of DON and Emerging Mycotoxins in Worldwide Finished Pig Feed and Their Combined Toxicity in Intestinal Cells” (Toxins, 2019)
# Tested on: IPEC-1 cells
# [1] = ratio 3, highest concentration(s): DON 50 µM + EMO 5 µM / ENN-B 17.2 µM / BEA 2.3 µM / ENN-A1 6.5 µM, ENN-B1 6 and 18 µM
substance,measurement,setting,value
Beauvericin,Toxicity of the combination of DON and the emerging mycotoxin,[1],"higher than that of BEA alone, but lower than that of DON alone"
Enniatin A1,Toxicity of the combination of DON and the emerging mycotoxin,"ratio 2, highest concentration: DON 50 µM + ENN-B1 4.1 µM / ENN-B 3.6 µM / ENN-A1 1.7 µM","higher than the toxicity of ENN-A1 alone, but still lower than the toxicity of DON alone"
same,Toxicity of the combination of DON and the emerging mycotoxin,[1],"higher than the toxicity of ENN-A1 alone, but lower than the toxicity of DON alone"

# Where two headings read alike, the source gives them in different places.
